Structures can show the parent of a compound that is named as a salt.

This is an account of results in PMC4997874 (Antimicrobial Agents and Chemotherapy, 2016).

Assay [1] deals with PrP^Sc accumulation in persistently infected hTERT-ovine microglia. Kind of assay: Standard scrapie cell assay (SSCA), cell-based antiprion activity. The settings on record: CC50 (WST-1) / TC-EC50 (SSCA). For orientation: Tetrazolium assays rely on reduction of a dye to a coloured formazan, in cell work by metabolically active cells.
Assay [2] concerns PRNP transcripts in PrP^Sc-negative hTERT-ovine microglia. In words: PRNP transcript levels by qRT-PCR. The settings on record: 1 μM, 4 days, PrP^Sc-negative cells, normalized to GAPDH, vs vehicle control. Format: cell-based.

In assay [1], `c1ccc2[nH]c(-c3ccc(-c4ccc(C5=NCCN5)cc4)o3)nc2c1` [DB772, 2-(2-benzimidazolyl)-5-[4-(2-imidazolino)phenyl] furan dihydrochloride] yielded a Selectivity index (CC50/TC-EC50) of 4.75.

For the molecule `N=C(N)c1ccc(-c2ccc(-c3nc4ccc(C(=N)N)cc4[nH]3)s2)cc1` [DB818A], the Selectivity index (CC50/TC-EC50) in assay [1] is greater than 6.9.

As to `c1ccc2[nH]c(-c3ccc(-c4ccc(C5=NCCN5)cc4)s3)nc2c1` [DB932A], the “Fold change in PRNP transcripts” value in assay [2] is “less than 2 fold”. Further, the Selectivity index (CC50/TC-EC50) in assay [1] stood at 6.4.

As for `Cn1c(-c2ccc(-c3ccc(C4=NCCN4)cc3)o2)nc2ccccc21` [DB948], the “Fold change in PRNP transcripts” value in assay [2] is given as “less than 2 fold”. In assay [1], this molecule displayed a Selectivity index (CC50/TC-EC50) of 3.5.
